Anti-infective test results gathered from many reports (values: NIAID ChemDB through PubChem).

Shared fields: whole-cell or culture tests; species: Mycobacterium avium complex

Conditions beyond the fields shown may differ between rows. MIC50, MIC90 and the like: level of inhibition, or share of isolates inhibited.

{"smiles": "CCCN(CCC)CNC(=O)c1cnccn1", "strain": "101", "endpoint": "MIC", "value": "128 µg/mL"}
{"smiles": "Cc1ccc(C)c(Sc2ncccn2)c1", "strain": "NJ211", "endpoint": "MIC", "value": ">12.8 µg/mL"}
{"smiles": "CC1COc2c(N3CCN(C)CC3)c(F)cc3c(=O)c(C(=O)O)cn1c23", "strain": "18 strains", "endpoint": "MIC50", "value": "12.5 µg/mL"}
{"smiles": "COc1ccccc1Sc1nc(Cl)nc2nc[nH]c12", "strain": "NJ211", "endpoint": "MIC", "value": ">12.8 µg/mL"}
{"smiles": "CC[C@H]1OC(=O)[C@H](C)[C@@H](OC(=O)CCc2ccccc2)[C@H](C)[C@@H](O[C@@H]2O[C@H](C)C[C@H](N(C)C)[C@H]2O)C(C)(O)C[C@@H](C)/C(=N\\OCCCOc2ccccc2)[C@H](C)[C@@H](O)[C@]1(C)O", "strain": "20092 (clarithromycin-resistant)", "endpoint": "MIC", "value": "6.25 µg/mL"}
{"smiles": "CC[C@H]1OC(=O)[C@H](C)[C@@H](O[C@H]2C[C@@](C)(OC)[C@@H](O)[C@H](C)O2)[C@H](C)[C@@H](O[C@@H]2O[C@H](C)C[C@H](N(C)C)[C@H]2O)[C@](C)(OC)C[C@@H](C)C(=O)[C@H](C)[C@@H](O)[C@]1(C)O", "strain": "MO-1", "endpoint": "MIC", "value": "8 µg/mL"}
{"smiles": "CCCNC(=O)OCCN=c1ssc2ccccc12", "strain": "AN2", "endpoint": "MIC", "value": "16 µg/mL"}
{"smiles": "NC(=S)c1ccnc(SCc2ccc([N+](=O)[O-])cc2)c1", "strain": "MY330/88", "endpoint": "MIC", "value": "31 µM"}
{"smiles": "COc1ccc(Sc2nc(Cl)nc3nc[nH]c23)cc1OC", "strain": "NJ211", "endpoint": "MIC", "value": ">12.8 µg/mL"}
{"smiles": "N#Cc1ccnc(SCc2ccc([N+](=O)[O-])cc2[N+](=O)[O-])c1", "strain": "MY330/88", "endpoint": "MIC", "value": ">1000 µM"}
{"smiles": "CCCCCCC(=O)O[C@H]1[C@H](C)OC(O[C@H]2[C@H](C)[C@@H](O[C@@H]3O[C@H](C)C[C@H](N(C)C)[C@H]3O)C(C)(O)C[C@@H](C)/C(=N\\OCCCOc3ccccc3)[C@H](C)[C@@H](O)[C@](C)(O)[C@@H](CC)OC(=O)[C@@H]2C)C[C@@]1(C)OC", "strain": "20092 (clarithromycin-resistant)", "endpoint": "MIC", "value": "3.13 µg/mL"}
{"smiles": "Cc1ccc(CSc2ncnc3nc[nH]c23)cc1", "strain": "NJ211", "endpoint": "MIC", "value": ">12.8 µg/mL"}
{"smiles": "O=C1c2cc([N+](=O)[O-])ccc2-n2c1nc1ncccc1c2=O", "strain": "19075", "endpoint": "MIC", "value": "25 µg/mL"}
{"smiles": "CCCNC(=O)OCCn1sc2ccccc2c1=S", "strain": "AN2", "endpoint": "MIC", "value": "16 µg/mL"}
{"smiles": "O=C1c2cc(F)ccc2-n2c1nc1ccncc1c2=O", "strain": "19075", "endpoint": "MIC", "value": "5 µg/mL"}
{"smiles": "COc1cc(CSc2nc(=O)[nH]c3nc[nH]c23)cc(OC)c1", "strain": "NJ211", "endpoint": "MIC", "value": ">12.8 µg/mL"}
{"smiles": "C[C@H]1COc2c(N3CCN(C)CC3)c(F)cc3c(=O)c(C(=O)O)cn1c23", "strain": "25 isolates", "endpoint": "MIC50", "value": "8 µg/mL"}
{"smiles": "CC(C)(C)NC(=O)OCCn1sc2ccccc2c1=S", "strain": "ISS 486", "endpoint": "MIC", "value": "4 µg/mL"}
{"smiles": "CCCCCCCCO[C@@H]1O[C@H]([C@@H](COCc2ccccc2)O[C@H]2O[C@H](CO)[C@@H](O)[C@@H]2O)[C@H](OCc2ccccc2)[C@H]1OCc1ccccc1", "strain": "NJ168", "endpoint": "MIC", "value": ">128 µg/mL"}
{"smiles": "NC(=O)c1cnc(Cl)cn1", "strain": "101", "endpoint": "MIC", "value": "32 µg/mL"}
{"smiles": "C[C@@H]1CN(c2c(F)c(N)c3c(=O)c(C(=O)O)cn(C4CC4)c3c2F)C[C@H](C)N1", "strain": "LV-2", "endpoint": "MIC", "value": "2 µg/mL"}
{"smiles": "Clc1ccccc1Sc1ncnc2nc[nH]c12", "strain": "NJ211", "endpoint": "MIC", "value": ">12.8 µg/mL"}
{"smiles": "O=C1c2ccccc2-n2c1nc1ccncc1c2=O", "strain": "19075", "endpoint": "MIC", "value": "5 µg/mL"}
{"smiles": "Cc1cccc(CSc2cc(C#N)ccn2)c1", "strain": "MY330/88", "endpoint": "MIC", "value": "250 µM"}
{"smiles": "CN1CCN(c2ccc3c(=O)n4c(nc3c2)C(=O)c2cc(F)ccc2-4)CC1", "strain": "19075", "endpoint": "MIC", "value": "5 µg/mL"}
{"smiles": "CC[C@H]1OC(=O)[C@H](C)[C@@H](O[C@H]2C[C@@](C)(OC)[C@@H](O)[C@H](C)O2)[C@H](C)[C@@H](O[C@@H]2O[C@H](C)C[C@H](N(C)C)[C@H]2O)[C@](C)(OC)C[C@@H](C)C(=O)[C@H](C)[C@@H](O)[C@]1(C)O", "strain": "25 isolates", "endpoint": "MBC90", "value": ">8 µg/mL"}
{"smiles": "CN(C)c1ccc(O)c2c1C[C@H]1C[C@H]3[C@H](N(C)C)C(=O)C(C(N)=O)=C(O)[C@@]3(O)C(=O)C1=C2O", "strain": "MO-1", "endpoint": "MIC", "value": "64 µg/mL"}
{"smiles": "CCCCCCCCO[C@@H]1O[C@H]([C@@H](COC)O[C@H]2O[C@H](COC(=O)c3ccccc3)[C@@H](OC(=O)c3ccccc3)[C@@H]2OC(=O)c2ccccc2)[C@H](OC)[C@H]1OC", "strain": "NJ211", "endpoint": "MIC", "value": ">128 µg/mL"}
{"smiles": "O=C(NCN1CCOCC1)c1cnccn1", "strain": "ATCC49601", "endpoint": "MIC", "value": ">128 µg/mL"}
{"smiles": "CC[C@H]1OC(=O)[C@H](C)[C@@H](O[C@H]2C[C@@](C)(OC)[C@@H](OC(C)=O)[C@H](C)O2)[C@H](C)[C@@H](O[C@@H]2O[C@H](C)C[C@H](N(C)C)[C@H]2O)C(C)(O)C[C@@H](C)/C(=N\\OCCSc2ccccc2)[C@H](C)[C@@H](O)[C@]1(C)O", "strain": "20096 (clarithromycin-resistant)", "endpoint": "MIC", "value": "6.25 µg/mL"}
{"smiles": "CC1(C)N=C(N)N=C(N)N1OCCCOc1cc(Cl)c(Cl)cc1Cl", "strain": "9141", "endpoint": "MIC", "value": "2 µg/mL"}
{"smiles": "CS(=O)(=O)c1ccc2c(c1)C(=O)c1nc3ccncc3c(=O)n1-2", "strain": "19075", "endpoint": "MIC", "value": ">25 µg/mL"}
{"smiles": "CO[C@H]1/C=C/O[C@@]2(C)Oc3c(C)c(O)c4c(=O)c(c5oc6cc(N7CCN(CC(C)C)CC7)cc(=O)c6nc5c4c3=C2O)NC(=O)/C(C)=C\\C=C\\[C@H](C)[C@H](O)[C@@H](C)[C@@H](O)[C@@H](C)[C@H](OC(C)=O)[C@@H]1C", "strain": "N-444", "endpoint": "MIC", "value": "0.025 µg/mL"}
{"smiles": "CCCCN(CC)CNC(=O)c1cnccn1", "strain": "ATCC49601", "endpoint": "MIC", "value": ">128 µg/mL"}
{"smiles": "N#Cc1ccnc(SCc2cccc(Cl)c2)c1", "strain": "MY330/88", "endpoint": "MIC", "value": "62.5 µM"}
{"smiles": "NNC(=O)c1ccncc1", "strain": "N-951 (HIV+)", "endpoint": "MIC", "value": "2 µg/mL"}
{"smiles": "COc1ccccc1CSc1ncnc2nc[nH]c12", "strain": "NJ211", "endpoint": "MIC", "value": ">12.8 µg/mL"}
{"smiles": "CO[C@H]1/C=C/O[C@@]2(C)Oc3c(C)c(O)c4c(=O)c(c5oc6cc(N7CCN(CC(C)C)CC7)cc(=O)c6nc5c4c3=C2O)NC(=O)/C(C)=C\\C=C\\[C@H](C)[C@H](O)[C@@H](C)[C@@H](O)[C@@H](C)[C@H](OC(C)=O)[C@@H]1C", "strain": "N-319 (HIV-)", "endpoint": "MIC", "value": "0.1 µg/mL"}
{"smiles": "CC[C@H]1OC(=O)[C@H](C)C(=O)[C@H](C)[C@@H](O[C@@H]2O[C@H](C)C[C@H](N(C)C)[C@H]2O)[C@](C)(OC)C[C@@H](C)C(=O)[C@H](C)[C@H]2N(CCCCc3ccccc3)C(=O)O[C@]12C", "strain": "24 strains (HIV+)", "endpoint": "MIC50", "value": "9 µg/mL"}
{"smiles": "CCNC(=O)OCCN=c1ssc2ccccc12", "strain": "AN2", "endpoint": "MIC", "value": "8 µg/mL"}
{"smiles": "NC1CCN(c2c(F)cc3c(=O)c(C(=O)O)cn(C4CC4)c3c2Cl)C1", "strain": "25 isolates", "endpoint": "MIC90", "value": ">8 µg/mL"}
{"smiles": "CC[C@@]1(O)OC(=O)[C@H](C)[C@@H](O[C@H]2C[C@@](C)(OC)[C@@H](O)[C@H](C)O2)[C@H](C)[C@@H](O[C@@H]2O[C@H](C)C[C@H](N(C)C)[C@H]2O)[C@](C)(OC)C[C@@H](C)C(=O)[C@H](C)[C@@H](O)[C@]1(C)O", "strain": "MO-1", "endpoint": "MIC", "value": "32 µg/mL"}
{"smiles": "NC(=S)c1ccnc(SCc2ccc(Br)cc2)c1", "strain": "MY330/88", "endpoint": "MIC", "value": "31 µM"}
{"smiles": "CC1CN(c2cc3c(cc2F)c(=O)c(C(=O)O)cn3-c2ccc(F)cc2F)CCN1", "strain": "25 isolates", "endpoint": "MBC90", "value": ">8 µg/mL"}
{"smiles": "CCOC(=O)c1ccc2c(c1)C(=O)c1nc3ncccc3c(=O)n1-2", "strain": "101", "endpoint": "MIC", "value": "5 µg/mL"}
{"smiles": "CO[C@H]1/C=C/O[C@@]2(C)Oc3c(C)c(O)c4c(O)c(c5c(c4c3C2=O)NC2(CCN(CC(C)C)CC2)N=5)=NC(=O)/C(C)=C\\C=C\\[C@H](C)[C@H](O)[C@@H](C)[C@@H](O)[C@@H](C)[C@H](OC(C)=O)[C@@H]1C", "strain": "N-962 (HIV+)", "endpoint": "MIC", "value": "0.1 µg/mL"}
{"smiles": "CCNC(=O)OCCn1sc2ccccc2c1=S", "strain": "AN3", "endpoint": "MIC", "value": "4 µg/mL"}
{"smiles": "CC[C@H]1OC(=O)[C@H](C)[C@@H](O[C@H]2C[C@@](C)(OC)[C@@H](O)[C@H](C)O2)[C@H](C)[C@@H](O[C@@H]2O[C@H](C)C[C@H](N(C)C)[C@H]2O)[C@](C)(OC)C[C@@H](C)C(=O)[C@H](C)[C@@H](O)[C@]1(C)O", "strain": "N-92159", "endpoint": "MIC", "value": "0.5 µg/mL"}
{"smiles": "CC[C@H]1OC(=O)[C@H](C)[C@@H](OC2C[C@@](C)(OC)[C@@H](OC(=O)CCCc3ccccc3)[C@H](C)O2)[C@H](C)[C@@H](O[C@@H]2O[C@H](C)C[C@H](N(C)C)[C@H]2O)C(C)(O)C[C@@H](C)/C(=N\\OCCCOc2ccccc2)[C@H](C)[C@@H](O)[C@]1(C)O", "strain": "20039 (clarithromycin-susceptible)", "endpoint": "MIC", "value": "0.78 µg/mL"}
{"smiles": "CCNC(=O)OCCn1sc2ccccc2c1=O", "strain": "ATCC 15769", "endpoint": "MIC", "value": ">32 µg/mL"}
{"smiles": "CO[C@H]1/C=C/O[C@@]2(C)Oc3c(C)c(O)c4c(O)c(c5c(c4c3C2=O)NC2(CCN(CC(C)C)CC2)N=5)=NC(=O)/C(C)=C\\C=C\\[C@H](C)[C@H](O)[C@@H](C)[C@@H](O)[C@@H](C)[C@H](OC(C)=O)[C@@H]1C", "strain": "F-2", "endpoint": "MIC", "value": "0.5 µg/mL"}
{"smiles": "CN1CCN(c2c(F)cc3c(=O)c(C(=O)O)cn(CCF)c3c2F)CC1", "endpoint": "MIC90", "value": "50 µg/mL"}
{"smiles": "OCCn1sc2ccccc2c1=S", "strain": "AN2", "endpoint": "MIC", "value": "8 µg/mL"}
{"smiles": "CC1COc2c(N3CCN(C)CC3)c(F)cc3c(=O)c(C(=O)O)cn1c23", "strain": "18 strains", "endpoint": "MIC50", "value": "12.5 µg/mL"}
{"smiles": "NC(=S)c1ccnc(SCc2ccc(Cl)cc2)c1", "strain": "MY330/88", "endpoint": "MIC", "value": "16 µM"}

For reference, 5 entries again:

CC[C@H]1OC(=O)[C@H](C)[C@@H](OC(=O)CCc2ccccc2)[C@H](C)[C@@H](O[C@@H]2O[C@H](C)C[C@H](N(C)C)[C@H]2O)C(C)(O)C[C@@H](C)/C(=N\OCCCOc2ccccc2)[C@H](C)[C@@H](O)[C@]1(C)O ; strain: 20092 (clarithromycin-resistant) ; endpoint: MIC ; value: 6.25 µg/mL
O=C1c2cc(F)ccc2-n2c1nc1ccncc1c2=O ; strain: 19075 ; endpoint: MIC ; value: 5 µg/mL
CCCCCCCCO[C@@H]1O[C@H]([C@@H](COC)O[C@H]2O[C@H](COC(=O)c3ccccc3)[C@@H](OC(=O)c3ccccc3)[C@@H]2OC(=O)c2ccccc2)[C@H](OC)[C@H]1OC ; strain: NJ211 ; endpoint: MIC ; value: >128 µg/mL
OCCn1sc2ccccc2c1=S ; strain: AN2 ; endpoint: MIC ; value: 8 µg/mL
CCCNC(=O)OCCN=c1ssc2ccccc12 ; strain: AN2 ; endpoint: MIC ; value: 16 µg/mL